Laboratory results: PubChem BioAssay AID504761 (Drosophila RNAi Screening Center, 2011)
The screen tested about 22,000 reagents; shown is an unselected part of those with a known target gene and a result. Of all reagents, 116 (0.52%) are marked active. 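Calls depend on retest data that are not deposited; infection was ranked per plate without normalising between plates; the unit of the infection score is not given.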 The raw values are shown without normalisation. Further read-outs or replicates are left out here. Not stated in the record: the amount of reagent, the time to read-out.

Aim: 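Insect host genes that dengue virus relies on to spread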 (primary screen)
Cells: D.Mel-2 cells from Drosophila
Reagent: long dsRNA against Drosophila genes
Challenge: infection with dengue virus type 2; dose and infection time not stated
Measurement: 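Per well on two replicate plates, imaging gave the percent of cells positive for viral envelope protein, ranked by infection, and a nuclear count of cells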
Reading the numbers: infection score: higher = more virus-infected cells; cell count: higher = more cells in the well
Call rule: 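Very low infection ranking in both replicate wells (chance probability at most 0.065), then a retest showing infection dropped 1.5-fold or more at p below 0.05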
Meaning of the calls: active = confirmed: knock-down lowers infection; inactive = not picked or not confirmed

CG14913 [DRSC02397]
- infection score, replicate 1: 3.69
- cell count, replicate 1: 6496
- activity call: inactive

CG14913 [DRSC27967]
- infection score, replicate 1: 23.5
- cell count, replicate 1: 5350
- activity call: inactive

CG33464 (retired record) [DRSC22936]
- infection score, replicate 1: 2.06
- cell count, replicate 1: 6014
- activity call: inactive

CG1529 [DRSC20515]
- infection score, replicate 1: 2.61
- cell count, replicate 1: 6278
- activity call: inactive

CG1529 [DRSC24433]
- infection score, replicate 1: 7.09
- cell count, replicate 1: 5965
- activity call: inactive

Next part; the last 2 above are carried over.
CG1529 [DRSC20515]
- infection score, replicate 1: 2.61
- cell count, replicate 1: 6278
- activity call: inactive

CG1529 [DRSC24433]
- infection score, replicate 1: 7.09
- cell count, replicate 1: 5965
- activity call: inactive

CG13482 [DRSC10024]
- infection score, replicate 1: 9.66
- cell count, replicate 1: 6480
- activity call: inactive

CG13482 [DRSC23975]
- infection score, replicate 1: 32.9
- cell count, replicate 1: 5417
- activity call: inactive

mars [DRSC06656]
- infection score, replicate 1: 13.8
- cell count, replicate 1: 3272
- activity call: inactive

Atg1 [DRSC09809]
- infection score, replicate 1: 7.81
- cell count, replicate 1: 6657
- activity call: inactive

Atg1 [DRSC09810]
- infection score, replicate 1: 0.4
- cell count, replicate 1: 6238
- activity call: inactive

CG10700 [DRSC02096]
- infection score, replicate 1: 3.48
- cell count, replicate 1: 6444
- activity call: inactive

CG2852 [DRSC04321]
- infection score, replicate 1: 27.1
- cell count, replicate 1: 5804
- activity call: inactive

CG2852 [DRSC27956]
- infection score, replicate 1: 5.44
- cell count, replicate 1: 6378
- activity call: inactive

CG9154 [DRSC03150]
- infection score, replicate 1: 6.54
- cell count, replicate 1: 6317
- activity call: inactive
